Results of unrelated studies side by side (data: NIAID ChemDB).

All rows: whole-cell or culture tests; species: Toxoplasma gondii

Blank or dashed fields: not listed here. Percent inhibition refers to the dose given; in toxicity tests it is the harm to the cells. MIC50, MIC90 and the like: level of inhibition, or share of isolates inhibited. ECn: concentration that inhibits the pathogen or its effect by n%. Neighbouring rows are from separate reports.

SMILES | strain | cell line | conditions | read-out | tested at | read by | value
N#CC(c1ccc(Cl)cc1)c1c(Cl)cc(-n2ncc(=O)[nH]c2=O)cc1Cl | RH | - | - | inhibition | 0.001 µg/mL | - | 24.4%
O=C(NC(=S)Nc1ccccc1)c1ccccc1COc1ccc(Cl)cc1 | RH beta-gal | Human foreskin fibroblasts (HFF) | - | EC50 | - | - | 16 µM
CN1CCC(c2cc(-c3ccncc3)c(-c3ccc(F)cc3)[nH]2)CC1 | TG-PKG FLAG T761M | - | - | EC50 | - | - | 3.8 µM
Cc1cnc2c(c1)C(=O)c1c(oc(C)c1C)C2=O | - | - | - | EC50 | - | - | 0.94 µg/mL
Nc1ccc(C(=O)NC(=O)c2ccccc2O)cc1 | - | Human foreskin fibroblasts | - | MIC50 | - | - | >1 µM
Cc1ccc(NC(=S)NC(=O)c2ccccc2COc2ccc(Cl)cc2)cc1 | RH beta-gal | Human foreskin fibroblasts (HFF) | - | EC50 | - | - | 31 µM
COc1cc2[nH]c(C)c(-c3ccc(Oc4ccc(OC(F)(F)F)cc4)cc3)c(=O)c2cc1F | 2F | - | - | EC50 | - | absorbance | 0.000007 µM
COc1ccc(OCc2ccccc2C(=O)NC(=S)Nc2cccc(OC)c2)cc1 | RH beta-gal | Human foreskin fibroblasts (HFF) | - | EC50 | - | - | 127 µM
CC(C)(C)c1ccc(CSc2ncnc3c2ncn3[C@@H]2O[C@H](CO)[C@@H](O)[C@H]2O)cc1 | RH (WILD TYPE) | - | - | inhibition | 5 µM | - | 16.7%
O=C(NC(=O)C1C[C@@H]1c1ccccc1)c1ccccc1O | - | Human foreskin fibroblasts | - | MIC50 | - | - | >0.25 µM
CCc1nc(N)nc(N)c1-c1ccc(Cl)cc1 | - | - | - | MIC | - | - | 0.5 µg/mL
N#Cc1ccc(CSc2ncnc3c2ncn3[C@@H]2O[C@H](CO)[C@@H](O)[C@H]2O)cc1 | RH (WILD TYPE) | - | - | inhibition | 50 µM | - | 100%
Cc1nc(N)nc(N)c1C#CC1CCCC1 | - | - | - | MIC | - | - | 0.25 µg/mL
O=C(NC(=O)c1ccccc1OCc1ccccc1)c1ccccc1O | - | Human foreskin fibroblasts | - | MIC50 | - | - | >0.25 µM
O=C1C(=O)c2ccccc2C(O)=C1C1CCC(c2ccc(Cl)cc2)CC1 | RH atovaquone-resistant | - | - | EC50 | - | - | 0.5 µM
CC(C)(C)c1ccc(NC(=O)NC(=O)c2ccccc2O)cc1 | - | Human foreskin fibroblasts | - | MIC50 | - | - | >0.25 µM
COc1ccc(OCc2ccccc2C(=O)NC(=S)Nc2ccc(I)cc2)cc1 | RH beta-gal | Human foreskin fibroblasts (HFF) | - | EC50 | - | - | 25 µM
O=C(NC(=O)c1ccccc1O)c1ccc2c(c1)OCO2 | - | Human foreskin fibroblasts | - | MIC50 | - | - | >0.25 µM
Cc1cccc(NC(=S)NC(=O)c2ccccc2COc2ccc(Cl)cc2)c1 | RH beta-gal | Human foreskin fibroblasts (HFF) | - | EC50 | - | - | 114 µM
O=C(NC(=O)c1ccccc1O)c1ccc(N2CCCC2)cc1 | - | Human foreskin fibroblasts | - | MIC90 | - | - | >0.25 µM
Cc1ccc(NC(=S)NC(=O)c2ccccc2COc2ccc(F)cc2)cc1 | RH beta-gal | Human foreskin fibroblasts (HFF) | - | EC50 | - | - | 8 µM
CC[C@H]1OC(=O)[C@H](C)[C@@H](O[C@H]2C[C@@](C)(OC)[C@@H](O)[C@H](C)O2)[C@H](C)[C@@H](O[C@@H]2O[C@H](C)C[C@H](N(C)C)[C@H]2O)[C@](C)(O)C[C@@H](C)CN(C)[C@H](C)[C@@H](O)[C@]1(C)O | RH | - | 40 h | inhibition | 25.4 µg/mL | - | 90%
O=C(NC(=O)c1ccc(Cl)cc1Cl)c1ccccc1O | - | Human foreskin fibroblasts | - | MIC50 | - | - | >1 µM
COc1ccc(OCc2ccccc2C(=O)NC(=S)Nc2cccc([N+](=O)[O-])c2)cc1 | RH beta-gal | Human foreskin fibroblasts (HFF) | - | EC50 | - | - | 104 µM
CCc1ccc(C(=O)NC(=O)c2ccccc2OC)cc1 | - | Human foreskin fibroblasts | - | MIC90 | - | - | >0.25 µM
O=C(NC(=S)Nc1ccccc1I)c1ccccc1COc1ccc(Cl)cc1 | RH beta-gal | Human foreskin fibroblasts (HFF) | - | EC50 | - | - | 57 µM

Again, the opening 3 rows:

SMILES,strain,cell line,conditions,read-out,tested at,read by,value
N#CC(c1ccc(Cl)cc1)c1c(Cl)cc(-n2ncc(=O)[nH]c2=O)cc1Cl,RH,-,-,inhibition,0.001 µg/mL,-,24.4%
O=C(NC(=S)Nc1ccccc1)c1ccccc1COc1ccc(Cl)cc1,RH beta-gal,Human foreskin fibroblasts (HFF),-,EC50,-,-,16 µM
CN1CCC(c2cc(-c3ccncc3)c(-c3ccc(F)cc3)[nH]2)CC1,TG-PKG FLAG T761M,-,-,EC50,-,-,3.8 µM